Results of unrelated studies side by side (data: NIAID ChemDB).

All rows: target-level tests; agent: HIV-1; target: Protease; method: fluorescence; measure: IC50

ICn: concentration for n% inhibition.

structure	setting	strain or isolate	value
CCCN1C(=O)N(CCC)N(C(=O)C(C)(C)C)C[C@@H](O)[C@H]1Cc1ccccc1			0.0068 µM
CC(C)C[C@H](NC(=O)[C@@H](NC(=O)CCCNC(=O)[C@H](Cc1ccccc1)NC(=O)[C@H](CCC(=O)O)NC(=O)[C@H](Cc1ccccc1)NC[C@H](Cc1ccccc1)NC(=O)OC(C)(C)C)[C@@H](C)O)C(=O)N[C@@H](CC(N)=O)C(=O)N[C@@H](Cc1ccccc1)C(=O)O	pH 7.0		0.328 µM
COC(=O)C[C@H](O)C(CC(C)C)NC(=O)[C@H](C)NC(=O)CC(O)C(CC1CCCCC1)NC(=O)[C@@H](NC(=O)[C@H](Cc1ccc(O)cc1)NC(=O)OCc1ccccc1)C(C)C			0.6 µM
CC(C)c1cccc2c(Cl)cc(C(=O)N[C@@H](CC(N)=O)C(=O)N[C@@H](Cc3ccccc3)[C@H](O)Cc3ccccc3C(=O)NC(C)(C)C)nc12			0.001 µg/mL
CC(=O)NC(=O)[C@H](Cc1c[nH]c2ccccc12)NC(=O)[C@@H](NC(=O)[C@@H]1CCCN1C[C@@H](O)[C@H](Cc1ccccc1)NC(=O)COc1c(C)cccc1C)C(C)C			0.0753 µM
COc1cc(CN2C(=O)N(Cc3ccc(O)c(OC)c3)N(C(=O)CCc3ccoc3)C[C@@H](O)[C@H]2Cc2ccccc2)ccc1O			<0.0005 µM
CC(=O)c1ccc(OCC(=O)N[C@@H](Cc2ccccc2)C[C@@H](O)[C@H](Cc2ccccc2)NC(=O)COc2ccc(C(C)=O)cc2)cc1			80 µM
Cc1ccc2nc(C(=O)N[C@@H](CC(N)=O)C(=O)N[C@@H](Cc3ccccc3)[C@H](O)Cc3ccccc3C(=O)NC(C)(C)C)ccc2c1			0.001 µg/mL
Cc1cccc(C)c1OCC(=O)N[C@@H](Cc1ccccc1)C[C@@H](O)[C@H](Cc1ccccc1)NC(=O)[C@H](NC(=O)c1cc(=O)c2ccccc2[nH]1)[C@H](C)O			0.004 µM
O=C(N[C@@H](Cn1cccc1)C(=O)N[C@@H](Cc1ccccc1)[C@@H]1O[C@@H]1[C@H](Cc1ccccc1)NC(=O)[C@H](Cn1cccc1)NC(=O)OCc1ccccc1)OCc1ccccc1			6.81 µg/mL
Cc1cccc(C)c1OCC(=O)N[C@@H](Cc1ccccc1)C[C@@H](O)[C@H](Cc1ccccc1)NC(=O)COc1c(C)cccc1C			0.025 µM
CC(=O)N[C@@H](Cc1ccc(F)cc1)C(=O)N[C@H](C(=O)N[C@@H](Cc1ccccc1)[C@@H](O)C(=O)N[C@H]1Cc2ccc(cc2)OCCOCCNC(=O)[C@H](C(C)C)NC1=O)C(C)C			0.005 µM
CCC(Cc1cccc(NS(=O)(=O)c2ccc(C)cc2)c1)c1cc(O)c(C(c2ccccc2)C2CC2)c(=O)o1			5.12 µM
CC(C)CC(=O)N[C@H](C(=O)N[C@H](C(=O)N[C@H]([C@@H](O)CC(=O)N[C@@H](C)C(=O)N[C@H]([C@@H](O)CC(=O)O)C(F)(F)F)C(F)(F)F)C(C)C)C(C)C			>150 µM
CC(C)[C@H](NC(=O)[C@H](C)NC(=O)OCc1ccccc1)C(=O)N[C@@H](Cc1ccccc1)[C@@H](O)[C@H](O)[C@H](Cc1ccccc1)NC(=O)[C@@H](NC(=O)[C@H](C)NC(=O)OCc1ccccc1)C(C)C			0.004 µM
N/C(=N/O)c1cccc(CN2C(=O)N(Cc3ccccc3)N(C(=O)CCc3ccccc3)C[C@@H](O)[C@H]2Cc2ccccc2)c1	pH 7.0		<0.0005 µM
NC(=O)c1cc2c([nH]c3ccccc32)c(-c2ccc(CO)o2)n1			35.74 µM
CC(C)[C@H](NC(=O)c1ccc2ccccc2n1)C(=O)N[C@@H](Cc1ccccc1)[C@@H]1O[C@@H]1[C@H](Cc1ccccc1)NC(=O)[C@@H](NC(=O)c1ccc2ccccc2n1)C(C)C			>1000 µg/mL
CC(C)CC(NC(=O)[C@H](C)NC(=O)C[C@H](O)[C@H](CC(C)C)NC(=O)[C@@H](NC(=O)[C@H](Cc1c[nH]c2ccccc12)NC(=O)OCc1ccccc1)C(C)C)[C@@H](O)CC(=O)O			0.04 µM
COC(=O)[C@@H](NC(=O)[C@H](CC(C)C)NC(=O)[C@@H](NC(=O)CCCOc1cccc(OCCCC(=O)N[C@H](C(=O)N[C@@H](CC(C)C)C(=O)N[C@H](C(=O)OC)C(C)C)[C@@H](C)O)n1)[C@@H](C)O)C(C)C			>7 µM
CC(=O)N[C@@H](Cc1c[nH]c2ccccc12)C(=O)N[C@H](C(=O)N[C@@H](CC(C)C)[C@@H](O)CC(=O)N[C@H](C(=O)N[C@H](C(=O)OCc1ccccc1)C(C)C)C(C)C)C(C)C			0.1 µM
CC(C)(C)NC(=O)[C@@H]1CN(Cc2cncs2)CCN1C[C@@H](O)C[C@@H](Cc1ccccc1)C(=O)N[C@H]1c2ccccc2C[C@H]1O		IIIB	<0.0005 µM
CC(C)[C@H](NC(=O)[C@H](C)NC(=O)OCc1ccccc1)C(=O)N[C@@H](Cc1ccccc1)[C@@H](O)C(=O)N[C@H]1Cc2ccc(cc2)OCCCNC(=O)[C@H](C(C)C)NC1=O			0.01 µM
CCC(C)[C@H](NC(=O)N(C)Cc1ccccn1)C(=O)N[C@@H](Cc1ccc2ccccc2c1)[C@@H]1O[C@@H]1[C@H](Cc1ccc2ccccc2c1)NC(=O)[C@@H](NC(=O)N(C)Cc1ccccn1)C(C)CC			>1000 µg/mL
CC(C)(C)OC(=O)N[C@H](CN[C@@H](Cc1ccccc1)C(=O)N[C@@H](CCC(=O)O)C(=O)N[C@@H](Cc1ccccc1)C(N)=O)Cc1ccccc1	pH 7.0		1.178 µM
O=Cc1ccc(OCC(=O)N[C@@H](Cc2ccccc2)C[C@@H](O)[C@H](Cc2ccccc2)NC(=O)COc2ccc(C=O)cc2)cc1			23 µM
Cn1cc(C(=O)O)c(=O)c2cc(N)c(N3CCN(c4ccccn4)CC3)cc21			71 µM
CC(C)(C)NC(=O)c1ccccc1C[C@@H](O)[C@H](CC1CCCCC1)NC(=O)[C@H](CC(N)=O)NC(=O)c1cc(Cl)c2ccccc2n1			0.00077 µg/mL
COc1cc(CN2C(=O)N(Cc3ccc(O)c(OC)c3)N(C(=O)CCc3ccco3)C[C@@H](O)[C@H]2Cc2ccccc2)ccc1O			<0.0005 µM
CCC(Cc1cccc(NS(=O)(=O)c2ccc(C#N)cn2)c1)c1cc(O)c(C(c2ccccc2)C2CC2)c(=O)o1			0.045 µM
CC[C@H](C)[C@H](NC(=O)C[C@H](O)[C@H](CC(C)C)NC(=O)[C@@H](NC(=O)[C@H](Cc1ccc(O)cc1)NC(=O)OCc1ccccc1)C(C)C)C(=O)N[C@@H](Cc1ccccc1)C(=O)O			0.1 µM
CC(=S)[C@H](NC(=O)OCC1=CCCC=C1)C(=O)N[C@@H](Cc1ccccc1)[C@@H]1O[C@@H]1[C@H](Cc1ccccc1)NC(=O)[C@@H](NC(=O)OCc1ccccc1)C(C)=S			0.195 µg/mL
CCC(Cc1cccc(NS(=O)(=O)c2ccc(N)cn2)c1)c1cc(O)c(C(c2ccccc2)C2CC2)c(=O)o1			0.16 µM
CC(C)(C)NC(=O)c1ccccc1C[C@@H](O)[C@H](Cc1ccccc1)NC(=O)[C@H](CC(N)=O)NC(=O)OCc1ccccc1			0.001 µg/mL
COC(=O)C[C@H](O)C(CC(C)C)NC(=O)[C@H](C)NC(=O)CC(O)C(Cc1ccccc1)NC(=O)[C@@H](NC(=O)[C@H](Cc1ccc(O)cc1)NC(=O)OCc1ccccc1)C(C)C			0.65 µM
O=C(c1ccco1)N1C[C@@H](O)[C@@H](Cc2ccccc2)N(Cc2ccc(O)cc2)C(=O)N1Cc1ccc(O)cc1			0.0015 µM
CC(=O)N[C@@H](Cc1cn(C(c2ccccc2)(c2ccccc2)c2ccccc2)cn1)C(=O)N[C@H](C(=O)N[C@@H](Cc1ccccc1)[C@@H](O)C(=O)N[C@H]1Cc2ccc(cc2)OCCCNC(=O)[C@H](C(C)C)NC1=O)C(C)C			0.017 µM
Nc1cccc(CN2C(=O)N(Cc3ccc4[nH]ncc4c3)N(C(=O)CCc3ccccc3)C[C@@H](O)[C@H]2Cc2ccccc2)c1	pH 7.0		<0.0005 µM
Cc1cccc(C)c1OCC(=O)N[C@@H](Cc1ccccc1)C[C@H](O)[C@H](Cc1ccccc1)NC(=O)[C@H](NC(=O)c1cc(=O)c2ccccc2[nH]1)C(C)C			0.003 µM
CCC(Cc1cccc(NS(=O)(=O)c2ccccc2)c1)c1cc(O)c(C(c2ccccc2)C2CC2)c(=O)o1			4.3 µM
Cc1cccc(C)c1OCC(=O)N[C@@H](Cc1ccccc1)[C@H](O)CN1CCC[C@H]1C(=O)NC(=O)COc1ccccc1			0.0847 µM
[N-]=[N+]=N[C@H]1[C@@H](N)[C@H](OCc2ccccc2)O[C@H](CO)[C@H]1OCc1ccccc1			>1000 µM

The last 3 rows once more:

structure,setting,strain or isolate,value
CCC(Cc1cccc(NS(=O)(=O)c2ccccc2)c1)c1cc(O)c(C(c2ccccc2)C2CC2)c(=O)o1,,,4.3 µM
Cc1cccc(C)c1OCC(=O)N[C@@H](Cc1ccccc1)[C@H](O)CN1CCC[C@H]1C(=O)NC(=O)COc1ccccc1,,,0.0847 µM
[N-]=[N+]=N[C@H]1[C@@H](N)[C@H](OCc2ccccc2)O[C@H](CO)[C@H]1OCc1ccccc1,,,>1000 µM

Rows are shuffled and stem from different studies. An empty or dashed field is not shown.